Results on 21 molecules are retold here after patent publication US20060035242A1.

For assay [1], the target named is T1, mouse pathogenic prion protein PrP^Sc (RML, in infected Balb-c mouse brain homogenate) (mouse), P04925.
For assay [2], the target named is T1, mouse pathogenic prion protein PrP^Sc …. This is another data set of the same source.

Where two headings read alike, the source gives them in different places.

QWNKPSKPKTNGGG [peptide reagent of SEQ ID NO:50]: the ELISA A405 nm in assay [1] worked out at 0.932 A405 nm.

In assay [1], GGGWNKPSKPKT [peptide reagent of SEQ ID NO:75] came in with an ELISA A405 nm of 0.247 A405 nm. Regarding GGWGQGGGTHNQWNKPSKPKTN [peptide reagent of SEQ ID NO:53], the ELISA A405 nm in assay [1] stood at 0.254 A405 nm. The same measure, in the same setting: the result for GGGQWNAPSKPKTN [peptide reagent of SEQ ID NO:92] reads 0.23 A405 nm. On the same count and under the same terms, the figure for GGTHNQWNKPSKPKTN [peptide reagent of SEQ ID NO:54] is 0.253 A405 nm. Turning to GGGQWNKPSAPKTN [peptide reagent of SEQ ID NO:93], the ELISA A405 nm in assay [1] turned out to be 0.25 A405 nm; in assay [2], 0.256 A405 nm.

In assay [2], GGGQWNKASKPKTN [peptide reagent of SEQ ID NO:99] had an ELISA A405 nm of 0.25 A405 nm.

GGGQWNKPSKPATN [peptide reagent of SEQ ID NO:94]: the ELISA A405 nm amounted to 0.26 A405 nm in assay [1] and 0.23 A405 nm in assay [2]. In the case of QWNKPSKPKTNGGGQWNKPSKPKTN [peptide reagent of SEQ ID NO:51 (tandem repeat)], the ELISA A405 nm in assay [1] amounted to 0.923 A405 nm. On the same count and under the same terms, the result for DDDAGAAAAGAVVGGLGGYMLGSAM [peptide reagent of SEQ ID NO:83] reads 0.237 A405 nm; that for GGGKKRPKPGGWNTGGSRYPGQGS [peptide reagent of SEQ ID NO:66], 0.533 A405 nm; that for KKKAGAAAAGAVVGGLGGYMLGSAM [peptide reagent of SEQ ID NO:57], 0.901 A405 nm. With GGGAGAAAAGAVVGGLGGYMLGSAM [peptide reagent of SEQ ID NO:78], the ELISA A405 nm in assay [1] is 0.259 A405 nm.

Regarding GGGQWAKPSKPKTN [peptide reagent of SEQ ID NO:100], in assay [2], the ELISA A405 nm is 0.376 A405 nm. In assay [1], QWNKPSKPKTNLKHVGGG [peptide reagent of SEQ ID NO:77] had an ELISA A405 nm of 0.839 A405 nm. In assay [1], DDDAGAAAAGAVVGGLGGYMLGSAMDDD [peptide reagent of SEQ ID NO:86] had an ELISA A405 nm of 0.227 A405 nm. In assay [1], GGGKKRPKPGGGQWNKPSKPKTN [peptide reagent of SEQ ID NO:81] displayed an ELISA A405 nm of 1.25 A405 nm. Regarding GGGQWNKPSKPKAN [peptide reagent of SEQ ID NO:102], the ELISA A405 nm in assay [2] is 0.234 A405 nm. On to GGGQWNKPSKAKTN [peptide reagent of SEQ ID NO:91], for which the ELISA A405 nm in assay [1] amounted to 0.256 A405 nm; in assay [2], 0.26 A405 nm. In assay [2], GGGQWNKPAKPKTN [peptide reagent of SEQ ID NO:101] came in with an ELISA A405 nm of 0.356 A405 nm. Consider KKKAGAAAAGAVVGGLGGYMLGSAMKKK [peptide reagent of SEQ ID NO:84], for which, in assay [1], the ELISA A405 nm was determined as 0.268 A405 nm.
